{"source": "PubChem BioAssay AID624099, ICCB-Longwood | 2012", "screen": "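Host factors E2 relies on to silence an HPV18 LCR reporter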 (primary screen)", "cells": "human C33A cervical carcinoma cells (HPV-negative) stably expressing BPV1 E2 and an HPV18 LCR luciferase reporter", "reagents": "siRNA pool against human genes, 40 nM", "duration": "72 h", "measured": "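Per-well luciferase luminescence, z-scored on each plate against the plate mean and SD with control wells left out, then averaged across three replicate plates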", "scale": "mean z-score and z-score: higher = stronger reporter signal, weaker E2 silencing", "active means": "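Hit if mean z-score reaches 2 and two or more of three replicate z-scores also reach 2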", "note": "The whole screen tested about 21,000 reagents; shown is an unselected part. 497 of all reagents (2.4%) count as active. 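Higher z means weaker E2 silencing; only reporter increases were scored, and knock-downs that hurt cell survival may mask genuine repressor factors.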 Entries without a mark were called inactive. The numbers tell different reagents against one gene apart. Reagent sequences are not shown."}
{"gene": "DYRK3 (dual specificity tyrosine phosphorylation regulated kinase 3)", "reagent": 1, "mean z-score": "3.2 (active)", "z-score, replicate A": 3.8, "z-score, replicate B": 3.67, "z-score, replicate C": 2.14}
{"gene": "ZNF35 (zinc finger protein 35)", "reagent": 1, "mean z-score": -1.06, "z-score, replicate A": -0.88, "z-score, replicate B": -1.28, "z-score, replicate C": -1.02}
{"gene": "ZG16B (zymogen granule protein 16B)", "reagent": 1, "mean z-score": 1.09, "z-score, replicate A": 1.03, "z-score, replicate B": 1.08, "z-score, replicate C": 1.16}
{"gene": "BPY2 (basic charge Y-linked 2)", "reagent": 1, "mean z-score": -0.73, "z-score, replicate A": -0.51, "z-score, replicate B": -0.83, "z-score, replicate C": -0.85}
{"gene": "TTLL11 (tubulin tyrosine ligase like 11)", "reagent": 1, "mean z-score": -0.47, "z-score, replicate A": -0.23, "z-score, replicate B": -0.9, "z-score, replicate C": -0.28}
{"gene": "TTLL11 (tubulin tyrosine ligase like 11)", "reagent": 2, "mean z-score": 0.66, "z-score, replicate A": 0.59, "z-score, replicate B": 0.67, "z-score, replicate C": 0.71}
{"gene": "IFNLR1 (interferon lambda receptor 1)", "reagent": 1, "mean z-score": -0.11, "z-score, replicate A": -0.16, "z-score, replicate B": -0.28, "z-score, replicate C": 0.11}
{"gene": "URB1-DT (URB1 divergent transcript)", "reagent": 1, "mean z-score": 0.42, "z-score, replicate A": 0.73, "z-score, replicate B": 0.2, "z-score, replicate C": 0.33}
{"gene": "AGAP4 (ArfGAP with GTPase domain, ankyrin repeat and PH domain 4)", "reagent": 1, "mean z-score": -0.3, "z-score, replicate A": -0.21, "z-score, replicate B": -0.11, "z-score, replicate C": -0.58}
{"gene": "NDUFAF7 (NADH:ubiquinone oxidoreductase complex assembly factor 7)", "reagent": 1, "mean z-score": 0.1, "z-score, replicate A": 0.52, "z-score, replicate B": -0.12, "z-score, replicate C": -0.09}
{"gene": "GRHL3 (grainyhead like transcription factor 3)", "reagent": 1, "mean z-score": -0.72, "z-score, replicate A": -0.63, "z-score, replicate B": -0.82, "z-score, replicate C": -0.71}
{"gene": "HDLBP (high density lipoprotein binding protein)", "reagent": 1, "mean z-score": -0.64, "z-score, replicate A": -0.38, "z-score, replicate B": -0.79, "z-score, replicate C": -0.76}
{"gene": "TBX20 (T-box transcription factor 20)", "reagent": 1, "mean z-score": 1.51, "z-score, replicate A": 1.49, "z-score, replicate B": 1.66, "z-score, replicate C": 1.37}
{"gene": "TAGLN3 (transgelin 3)", "reagent": 1, "mean z-score": "2.46 (active)", "z-score, replicate A": 2.46, "z-score, replicate B": 2.6, "z-score, replicate C": 2.32}
{"gene": "ZBTB5 (zinc finger and BTB domain containing 5)", "reagent": 1, "mean z-score": 0.66, "z-score, replicate A": 0.46, "z-score, replicate B": 0.65, "z-score, replicate C": 0.87}
{"gene": "SRRM4 (serine/arginine repetitive matrix 4)", "reagent": 1, "mean z-score": 0.46, "z-score, replicate A": 0.89, "z-score, replicate B": 0.19, "z-score, replicate C": 0.3}
{"gene": "NLRP13 (NLR family pyrin domain containing 13)", "reagent": 1, "mean z-score": 0.64, "z-score, replicate A": 0.67, "z-score, replicate B": 0.61, "z-score, replicate C": 0.63}
{"gene": "OAZ1 (ornithine decarboxylase antizyme 1)", "reagent": 1, "mean z-score": 0.04, "z-score, replicate A": -0.03, "z-score, replicate B": -0.04, "z-score, replicate C": 0.19}
{"gene": "CCDC71 (coiled-coil domain containing 71)", "reagent": 1, "mean z-score": 0.56, "z-score, replicate A": 0.6, "z-score, replicate B": 0.58, "z-score, replicate C": 0.49}
{"gene": "DUSP10 (dual specificity phosphatase 10)", "reagent": 1, "mean z-score": -0.43, "z-score, replicate A": -0.09, "z-score, replicate B": -0.24, "z-score, replicate C": -0.96}
{"gene": "NONO (non-POU domain containing octamer binding)", "reagent": 1, "mean z-score": 0.02, "z-score, replicate A": 0.29, "z-score, replicate B": -0.2, "z-score, replicate C": -0.04}
{"gene": "RTL9 (retrotransposon Gag like 9)", "reagent": 1, "mean z-score": 1.06, "z-score, replicate A": 0.83, "z-score, replicate B": 0.96, "z-score, replicate C": 1.4}
{"gene": "RNF139 (ring finger protein 139)", "reagent": 1, "mean z-score": 1.55, "z-score, replicate A": 1.54, "z-score, replicate B": 1.63, "z-score, replicate C": 1.48}
{"gene": "BCO1 (beta-carotene oxygenase 1)", "reagent": 1, "mean z-score": 1.06, "z-score, replicate A": 0.88, "z-score, replicate B": 1.1, "z-score, replicate C": 1.22}
{"gene": "LEPROT (leptin receptor overlapping transcript)", "reagent": 1, "mean z-score": -1.38, "z-score, replicate A": -1.29, "z-score, replicate B": -1.38, "z-score, replicate C": -1.48}
{"gene": "HRK (harakiri, BCL2 interacting protein)", "reagent": 1, "mean z-score": 0.2, "z-score, replicate A": 0.14, "z-score, replicate B": 0.22, "z-score, replicate C": 0.23}
{"gene": "LGALS13 (galectin 13)", "reagent": 1, "mean z-score": -0.15, "z-score, replicate A": 0.23, "z-score, replicate B": -0.13, "z-score, replicate C": -0.57}
